PubChem BioAssay AID1259414, Drosophila RNAi Screening Center | 2018
In all, the deposit lists about 24,000 reagents; shown is a random part of those that have a named target and a result. Over the whole deposit, about 1,210 (5%) are marked active. 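Inactive calls also include excluded dsRNAs with several or no targets, genes unexpressed in JW18, and well A1, regardless of score.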 Unmarked entries are inactive. Reagents against one gene are numbered here.

Screen: 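Fly genes that alter Wolbachia amount inside host cells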 (primary screen)
System: Drosophila JW18 cells infected with Wolbachia
Reagents: long dsRNA against Drosophila genes, 0.25 µg dsRNA per well of a 384-well plate
Time to read-out: 5 days
Treatment: cells persistently infected with Wolbachia before knock-down; no added drug
Detection: 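Automated imaging of bacterial rRNA staining divided by host cell count, reported as plate-normalised robust z-score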
Scale: Wolbachia per cell robust z: higher = more Wolbachia per host cell than the plate typical
Rule for the call: 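Hit when robust z is 1.5 or more, or -1.5 or less, in at least two of three replicates; excludes dsRNAs with several or no targets, genes not expressed in JW18 and well A1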

Which result is listed for CG12539 #1?
Wolbachia per cell robust z, rep 1: 0.415; Wolbachia per cell robust z, rep 2: -0.629; Wolbachia per cell robust z, rep 3: -1.57

How did the screen score CG12539 #2?
Wolbachia per cell robust z, rep 1: -0.238; Wolbachia per cell robust z, rep 2: 1.5; Wolbachia per cell robust z, rep 3: 0.782

For CG14421 #1, what was measured?
Wolbachia per cell robust z, rep 1: 0.346; Wolbachia per cell robust z, rep 2: -2.11; Wolbachia per cell robust z, rep 3: -1

For CG14421 #2, what was measured?
Wolbachia per cell robust z, rep 1: 0.533; Wolbachia per cell robust z, rep 2: -1.83; Wolbachia per cell robust z, rep 3: -0.265

With mthl3 #1, what does the deposit list?
Wolbachia per cell robust z, rep 1: -0.0141; Wolbachia per cell robust z, rep 2: -1.94; Wolbachia per cell robust z, rep 3: -0.18

For mthl3 #2, how do the results read?
Wolbachia per cell robust z, rep 1: -0.686; Wolbachia per cell robust z, rep 2: 1.08; Wolbachia per cell robust z, rep 3: -0.988

What did the screen give for ND-B17?
Wolbachia per cell robust z, rep 1: 1.11; Wolbachia per cell robust z, rep 2: 0.176; Wolbachia per cell robust z, rep 3: 1.15

What did the screen give for gus #1?
Wolbachia per cell robust z, rep 1: -0.919; Wolbachia per cell robust z, rep 2: -1.64; Wolbachia per cell robust z, rep 3: -0.163

What did the screen give for gus #2?
Wolbachia per cell robust z, rep 1: -0.637; Wolbachia per cell robust z, rep 2: -0.872; Wolbachia per cell robust z, rep 3: -1.11

What did the screen give for gus #3?
Wolbachia per cell robust z, rep 1: -0.743; Wolbachia per cell robust z, rep 2: -0.318; Wolbachia per cell robust z, rep 3: -1

For CG7987 #1, what was measured?
Wolbachia per cell robust z, rep 1: -3.59 (active); Wolbachia per cell robust z, rep 2: -0.767; Wolbachia per cell robust z, rep 3: -7.07

For CG7987 #2, how do the results read?
Wolbachia per cell robust z, rep 1: 0.592; Wolbachia per cell robust z, rep 2: 0.651; Wolbachia per cell robust z, rep 3: -0.0668

How did the screen score xmas #1?
Wolbachia per cell robust z, rep 1: -0.227; Wolbachia per cell robust z, rep 2: -1.73; Wolbachia per cell robust z, rep 3: -0.197

Which result is listed for xmas #2?
Wolbachia per cell robust z, rep 1: 0.532; Wolbachia per cell robust z, rep 2: 0.593; Wolbachia per cell robust z, rep 3: -0.078

Which result is listed for Gad1 #1?
Wolbachia per cell robust z, rep 1: -3.14; Wolbachia per cell robust z, rep 2: 0.763; Wolbachia per cell robust z, rep 3: 0.634

For Gad1 #2, what was measured?
Wolbachia per cell robust z, rep 1: 0.435; Wolbachia per cell robust z, rep 2: -0.341; Wolbachia per cell robust z, rep 3: 1.71

4 entries already listed, sorted by “Wolbachia per cell robust z, rep 1”, highest first.
ND-B17 — Wolbachia per cell robust z, rep 1: 1.11; Wolbachia per cell robust z, rep 2: 0.176; Wolbachia per cell robust z, rep 3: 1.15
mthl3 #1 — Wolbachia per cell robust z, rep 1: -0.0141; Wolbachia per cell robust z, rep 2: -1.94; Wolbachia per cell robust z, rep 3: -0.18
mthl3 #2 — Wolbachia per cell robust z, rep 1: -0.686; Wolbachia per cell robust z, rep 2: 1.08; Wolbachia per cell robust z, rep 3: -0.988
gus #1 — Wolbachia per cell robust z, rep 1: -0.919; Wolbachia per cell robust z, rep 2: -1.64; Wolbachia per cell robust z, rep 3: -0.163

Continued.
With Rdl #1, what does the deposit list?
Wolbachia per cell robust z, rep 1: 0.16; Wolbachia per cell robust z, rep 2: 0.0745; Wolbachia per cell robust z, rep 3: -1.92

For Rdl #2, what was measured?
Wolbachia per cell robust z, rep 1: -0.0481; Wolbachia per cell robust z, rep 2: -0.605; Wolbachia per cell robust z, rep 3: -7.09

For Ranbp16, what does the deposit list?
Wolbachia per cell robust z, rep 1: 0.776; Wolbachia per cell robust z, rep 2: 0.694; Wolbachia per cell robust z, rep 3: -0.0999

For CG2182 #1, what was measured?
Wolbachia per cell robust z, rep 1: -2.44; Wolbachia per cell robust z, rep 2: -0.524; Wolbachia per cell robust z, rep 3: -0.385

With CG2182 #2, how do the results read?
Wolbachia per cell robust z, rep 1: 0.68; Wolbachia per cell robust z, rep 2: -0.436; Wolbachia per cell robust z, rep 3: 0.245

What did the screen give for CG31709 #1?
Wolbachia per cell robust z, rep 1: 1.36; Wolbachia per cell robust z, rep 2: 0.0188; Wolbachia per cell robust z, rep 3: 0.85

How did the screen score CG31709 #2?
Wolbachia per cell robust z, rep 1: -0.803; Wolbachia per cell robust z, rep 2: 0.502; Wolbachia per cell robust z, rep 3: -0.151

With bic #1, how do the results read?
Wolbachia per cell robust z, rep 1: -1.65; Wolbachia per cell robust z, rep 2: 0.00777; Wolbachia per cell robust z, rep 3: -1.12

What did the screen give for bic #2?
Wolbachia per cell robust z, rep 1: 0.579; Wolbachia per cell robust z, rep 2: -10.2; Wolbachia per cell robust z, rep 3: 0.485
